Laboratory results published in patent publication US20230293565A1, “USE OF WNT/BETA-CATENIN PATHWAY INHIBITORS TO BLOCK REPLICATION OF SARS-COV-2 AND OTHER PATHOGENIC VIRUSES” (THE GOVERNORS OF THE UNIVERSITY OF ALBERTA, priority 2020, published 2023).

Test system: type I (IFNβ) interferon
Type: cell-based, human

Row | Substance | production of IFN (type I, IFNβ transcripts) in response to viral infection | type I interferon (IFNβ) induction by PPAR gamma agonists (A549, 10 micromolar, Sendai 100 HAU/ml, 16 hours)
1 | iCRT-14 | significantly increased | 
2 | chiglitazar |  | upregulate type I interferon
